The source of these data is article doi:10.1101/2025.11.04.686469, “Discovery of Host-Directed Small Molecules with Broad Anti-Leishmanial Efficacy” (bioRxiv, 2025).

SMILES strings stand for the structures.

The subject of the data set is intracellular L. donovani amastigotes. As to the kind of experiment: Luminescent-based evaluation of intracellular anti-leishmanial activity in THP-1 macrophages. It is filed as cell-based, Leishmania donovani. The note with it: 24h LC50 / Lum IC50 (Supplemental Table 2). As for the experimental part:
Luminescent strains, L. donovani LV82 expressing firefly luciferase (a kind gift from Dr. Abhay Satoskar, Ohio State University) and L. mexicana (NR-51210, ATCC) expressing renilla luciferase were used to evaluate the effect of the compounds in intracellular and extracellular conditions. Wild-type L. donovani LV82 (ATCC) were used for Giemsa staining based experiments. All parasites were cultured at 25°C and 5% CO2 in M199 media (Corning) supplemented with 10% FBS, 1% penicillin/streptomycin, and hemin (0.01 mg/mL), and used in experiments up to passage 15.
THP-1 cells were seeded in a 96 well plate (25,000 cells/well) overnight then differentiated with 150 nM phorbol 12-myristate 13-acetate (PMA) over 72 hours (Supplemental Figure 1). […] Briefly, promastigotes of a known cell density were resuspended in RPMI media (with 10% FBS, 1% P/S and 0.05 mM β-mercaptoethanol) and incubated with adhered THP-1 cells over 18 hours. After infection, cells were washed three times with fresh media to remove extracellular promastigotes.
Infected macrophages were then treated with compounds solubilized in DMSO ranging from 0.1-10 μM in concentrations. After 72 hours of treatment, the viability of the amastigotes within macrophages was determined using Promega firefly luminescence assay (Cat E1500) or Pierce Renilla luciferase assay (Cat 16166) for L. donovani and L. mexicana strains, respectively. Briefly, media was removed, and cells were lysed with the assay lysis buffer. The luciferase substrate was then incubated with the lysed cells for 10 min at room temperature and luminescence of live Leishmania was measured in a white opaque 96 well plate using a Biotek plate reader.
`Fc1cccc(CNC2CCN(c3ccc(-n4nc(C(F)(F)F)cc4C4CCCCC4)cc3)CC2)c1` [Compound 337] returned a Selectivity of 9.3.
The result for `CCCNC1CN(c2ccc(-n3nc(C(F)(F)F)cc3-c3ccc(-c4ccc(C(F)(F)F)cc4)cc3)cc2)C1` [Compound 54] reads 4.1; that for `C#Cc1ccc(-c2cc(C(F)(F)F)nn2-c2ccc(N3CCNCC3)cc2)cc1.Cl` [Compound 43], 0.1.
The result for `O=C(NCc1cccc(F)c1)c1ccc(-n2cc(C(F)(F)F)nc2-c2ccc(-c3ccc(C(F)(F)F)cc3)cc2)c(F)c1` [Compound 181] reads under 2.9; that for `NCC(=O)Nc1ccc(-n2cc(C(F)(F)F)nc2-c2ccc(Br)cc2)cc1` [Compound 195], under 3.9.
Next, `Cl.NC1CCN(c2ccc(-n3nncc3-c3ccc(C(F)(F)F)cc3)cc2)C1` (stereo not shown) [Compound 204]: under 3.7.
For `FC(F)(F)c1ccc(-c2ccc(-c3cc(C(F)(F)F)nn3-c3ccc(NC4CNC4)cc3)cc2)cc1` [Compound 3], the Selectivity turned out to be 6.1.
`FC(F)(F)c1ccc(-c2ccc(-c3cc(C(F)(F)F)nn3-c3ccc(N4CC(NCc5ccccc5)C4)cc3)cc2)cc1` [Compound 112]: the Selectivity is on record as under 0.6.
Next, `CC(C)(C)OC(=O)NC1CCN(c2ccc(-n3nc(C4CCCCC4)cc3C(F)(F)F)cc2)C1` (stereo not shown) [Compound 229]: 1.5; `CC(C)(C)c1ccc(-c2nc(C(F)(F)F)cn2-c2ccc([N+](=O)[O-])cc2)cc1` [Compound 146]: over 11.4; `CC(C)C#Cc1ccc(-c2cc(C(F)(F)F)nn2-c2ccc([N+](=O)[O-])cc2)cc1` [Compound 94]: under 2.9.
Next, `NC1CCN(c2ccc(-n3nc(C(F)(F)F)cc3-c3ccc(-c4ccc(S(F)(F)(F)(F)F)cc4)cc3)cc2)C1` (stereo not shown) [Compound 106]: 0.7.
Next, `NCC(=O)Nc1ccc(-n2cc(C(F)(F)F)nc2-c2ccc(-c3ccc(C(F)(F)F)cc3)cc2)cc1` [Compound 79]: 0.9.
Compound `NC(Cc1ccccc1)C(=O)N1CCC(Nc2ccc(-n3nc(C(F)(F)F)cc3-c3ccc(-c4ccc(C(F)(F)F)cc4)cc3)cc2)C1` (stereo not shown) [Compound 61] returned a Selectivity of 2.7.
`CNS(=O)(=O)Cc1ccc(-n2nc(C(F)(F)F)cc2-c2ccc(-c3ccc(C(F)(F)F)cc3)cc2)cc1` [Compound 191] had a Selectivity of under 1.2.
The result for `Oc1ccc(CNC2CCN(c3ccc(-n4nc(C(F)(F)F)cc4C4CCCCC4)cc3)C2)cc1` (stereo not shown) [Compound 362] reads 9.0; that for `CC(C)(C)c1ccc(-c2nc(C(F)(F)F)cn2-c2ccc(N)cc2)cc1` [Compound 149], 3.2; that for `N#Cc1ccc(CN2CCC(Nc3ccc(-n4nc(C(F)(F)F)cc4C4CCCCC4)cc3)CC2)cc1` [Compound 323], 3.2.
Next, `Oc1ccc(CNC2CCN(c3ccc(-n4nc(C(F)(F)F)cc4-c4ccc(-c5ccc(C(F)(F)F)cc5)cc4)cc3)C2)cc1` (stereo not shown) [Compound 18]: 6.1; `FC(F)(F)c1ccc(-c2ccc(-c3cc(C(F)(F)F)nn3-c3ccc(NC4CCN(Cc5ccccc5)C4)cc3)cc2)cc1` (stereo not shown) [Compound 114]: under 1.4.
As to `CC(=O)NCCOCCN1CCC(Oc2ccc(-n3nc(C(F)(F)F)cc3C3CCCCC3)cc2)CC1` [Compound 427], the Selectivity amounted to 4.8.
`CC(C)C#Cc1ccc(-c2cc(C(F)(F)F)nn2-c2ccc(Br)cc2)cc1` [Compound 96] yielded a Selectivity of under 3.8.
Next, `NCC(=O)NC1CCN(c2ccc(-n3nc(C(F)(F)F)cc3-c3ccc(-c4ccc(C(F)(F)F)cc4)cc3)cc2)C1` (stereo not shown) [Compound 119]: under 3.7; `CC(C)C#Cc1ccc(-c2cc(C(F)(F)F)nn2-c2ccc(N3CCNCC3)cc2)cc1.Cl` [Compound 45]: 0.9.
The result for `FC(F)(F)c1cc(C2CCCCC2)n(-c2ccc(NC3CN(Cc4ccccc4)C3)cc2)n1` [Compound 395] reads 4.9.
As for `Fc1cccc(CN2CC(Nc3ccc(-n4nc(C(F)(F)F)cc4C4CCCCC4)cc3)C2)c1` [Compound 396], the Selectivity is recorded as 3.8.
Next, `FC(F)(F)c1cc(C2CCCCC2)n(-c2ccc(N3CCC(NCc4ccccc4)CC3)cc2)n1` [Compound 336]: 6.6; `NC1CCN(c2ccc(-n3nc(C4CCCCC4)cc3C(F)(F)F)cc2)C1` (stereo not shown) [Compound 232]: 5.6; `FC(F)(F)c1ccc(-c2ccc(-c3cc(C(F)(F)F)nn3-c3ccc(NCCCCOc4ccccc4)cc3)cc2)cc1` [Compound 68]: under 3.5.
The compound `FC(F)(F)c1cc(C2CCCCC2)n(-c2ccc(NC3CCN(Cc4ccccc4)C3)cc2)n1` (stereo not shown) [Compound 356] registered a Selectivity of 7.6.
With `Cl.FC(F)(F)C#Cc1ccc(-c2cc(C(F)(F)F)nn2-c2ccc(N3CCNCC3)cc2)cc1` [Compound 93], the Selectivity is under 4.0.
Compound `Cl.Cl.NCCCN1CCC(Oc2ccc(-n3nc(C(F)(F)F)cc3C3CCCCC3)cc2)CC1` [Compound 425] registered a Selectivity of 2.5.
The result for `CC(C)C#Cc1ccc(-c2cc(C(F)(F)F)nn2-c2ccc(N3CCC(N)C3)cc2)cc1` (stereo not shown) [Compound 98] reads under 1.9.
Next, `NCC(=O)Nc1ccc(-n2nc(C(F)(F)F)cc2C2CCCCC2)cc1` [Compound 341]: 6.6; `FC(F)(F)c1ccc(-c2ccc(-c3nc(C(F)(F)F)cn3-c3ccc(NC4CCNC4)cc3)cc2)cc1` (stereo not shown) [Compound 246]: 1.4; `Oc1ccc(-n2nc(C(F)(F)F)cc2C2CCCCC2)cc1` [Compound 366]: under 3.3.
Next, `FC(F)(F)c1cc(-c2ccc(Cl)c(Cl)c2)n(-c2ccc(NC3CCNC3)cc2)n1` (stereo not shown) [Compound 261]: 7.3; `CC(C)(C)OC(=O)N1CCC(Nc2ccc(-n3nc(C(F)(F)F)cc3-c3ccccc3C(F)(F)F)cc2)C1` (stereo not shown) [Compound 259]: under 2.4.
`FC(F)(F)c1cc(C2CCCCC2)n(-c2ccc(OC3CCNC3)cc2)n1` (stereo not shown) [Compound 375] gave a Selectivity of 1.9.
Next, `O=C(C1CCCCC1)N1CC(Nc2ccc(-n3nc(C(F)(F)F)cc3-c3ccc(-c4ccc(C(F)(F)F)cc4)cc3)cc2)C1` [Compound 71]: under 0.8; `Cl.NC1CCN(c2ccc(-n3nncc3-c3ccc(-c4ccc(C(F)(F)F)cc4)cc3)cc2)C1` (stereo not shown) [Compound 137]: 1.7.
Turning to `O=C(CNCc1ccc(O)cc1)Nc1ccc(-n2nc(C(F)(F)F)cc2C2CCCCC2)cc1` [Compound 355], the Selectivity is recorded as 10.5.
The compound `CC(=O)NCCN1CCC(Oc2ccc(-n3nc(C(F)(F)F)cc3C3CCCCC3)cc2)CC1` [Compound 417] showed a Selectivity of 8.1.
Next, `FC(F)(F)c1cc(C(F)(F)F)n(-c2ccc(Br)cc2)n1` [Compound 276]: under 0.6; `N#Cc1ccc(CN2CC(Nc3ccc(-n4nc(C(F)(F)F)cc4C4CCCCC4)cc3)C2)cc1` [Compound 397]: 3.4; `NC1CCN(c2ccc(-n3nc(C(F)(F)F)cc3C3CCCCC3)cc2)CC1` [Compound 324]: 14.2.
The result for `NCC(=O)Nc1ccc(-n2cc(C(F)(F)F)nc2-c2ccc(C(F)(F)F)cc2)cc1` [Compound 409] reads 4.0.
On to `FC(F)(F)c1ccc(-c2cc(C(F)(F)F)nn2CCNC2CCN(Cc3ccccc3)C2)cc1` (stereo not shown) [Compound 294], for which the Selectivity was under 2.8.
Next, `CC(C)c1cc(C(F)(F)F)nn1-c1ccc(NC2CCNC2)cc1` (stereo not shown) [Compound 315]: 7.6; `FC(F)(F)c1ccc(-c2ccc(-c3cc(C(F)(F)F)nn3-c3ccc(NC4CN(Cc5ccccc5)C4)cc3)cc2)cc1` [Compound 113]: under 1.9.
The compound `CN(C)c1ccc(-c2cc(C(F)(F)F)nn2-c2ccc(N3CCC(N)C3)cc2)cc1` (stereo not shown) [Compound 231] gave a Selectivity of 6.2.
Next, `NC1CCN(c2ccc(-n3nc(C(F)(F)F)cc3-c3ccc(-c4ccc(C(F)(F)F)cc4)cc3)cc2)CC1` [Compound 73]: 1.8; `NCC(=O)N1CC(Nc2ccc(-n3nc(C(F)(F)F)cc3-c3ccc(-c4ccc(C(F)(F)F)cc4)cc3)cc2)C1` [Compound 118]: 2.4.
Next, `FC(F)(F)c1cn(-c2ccc(N3CCNCC3)cc2)c(-c2ccc(Cl)cc2)n1` [Compound 51]: 3.1.
Turning to `FC(F)(F)c1ccc(-c2ccc(-c3cc(C(F)(F)F)nn3-c3ccc(OC4CCNCC4)cc3)cc2)cc1` [Compound 34], the Selectivity is reported as over 8.3.
Regarding `FC(F)(F)c1ccc(-c2ccc(-c3cc(C(F)(F)F)nn3-c3ccc(NC4CCNCC4)cc3)cc2)cc1` [Compound 65], the Selectivity turned out to be 1.7.
As for `FC(F)(F)c1cc(C2CCCCC2)n(-c2ccc(NC3CCN(Cc4ccccc4)CC3)cc2)n1` [Compound 381], the Selectivity amounted to 2.0.
As to `CC(C)(C)c1ccc(-c2nc(C(F)(F)F)cn2-c2ccc(NC(=O)CN)cc2)cc1` [Compound 157], the Selectivity is under 2.8.
